Anti-infective test results gathered from many reports (values: NIAID ChemDB through PubChem).

Shared fields: tests on isolated targets; agent: Pneumocystis carinii

Blank or dashed fields: not listed here. Two numbers with a dash give a range or band. Rows are shuffled and stem from different studies. ICn is the concentration giving n% inhibition. Percent inhibition refers to the dose given; in toxicity tests it is the harm to the cells.

| SMILES | measure | tested at | protein | read by | result |
|---|---|---|---|---|---|
| COc1ncnc(NS(=O)(=O)c2ccc(N)cc2)c1OC | IC50 |  | Oxidosqualene cyclase | HPLC | >500 µM |
| CC1(C)N=C(N)N=C(N)N1c1cccc(CCc2ccccc2)c1 | IC50 |  | DHFR |  | 0.43 µM |
| COc1cc2c(c(OC)c1OC)CCN2c1cnc(N)nc1N | IC50 |  | DHFR |  | 87 µM |
| N=C(N)c1ccc(-c2cc3ccc(C(=N)N)cc3[nH]2)cc1 | IC50 |  | Topoisomerase I |  | 25–50 µM |
| COc1c(-n2cccc2)cc(Cc2cnc(N)nc2N)cc1-n1cccc1 | IC50 |  | DHFR |  | 4.5 µM |
| c1cc2nc(CCCCc3nc4ccc(C5=NCCN5)cc4[nH]3)[nH]c2cc1C1=NCCN1 | IC50 |  | Topoisomerase I |  | 1.25 µM |
| CN(Cc1cnc2nc(N)nc(N)c2n1)c1ccc(C(=O)N[C@H](CCC(=O)O)C(=O)O)cc1F | IC50 |  | DHFR |  | 0.00072 µM |
| O=C1C(=O)c2ccccc2C(O)=C1C1CCC(c2ccc(Cl)cc2)CC1 | inhibition | 10 µM | Dihydroorotate dehydrogenase |  | 36.5% |
| CN(C)C(=O)c1ccc(NCc2cnc3nc(N)nc(N)c3n2)cc1 | IC50 |  | DHFR |  | >5 µM |
| N=C(N)c1ccc2nc(CCCCc3nc4ccc(C(=N)N)cc4[nH]3)[nH]c2c1 | IC50 |  | Topoisomerase II |  | 12.5 µM |
| COc1cc(Cc2cnc(N)nc2N)cc(OCCNS(=O)(=O)c2ccc(N)cc2)c1Br | IC50 |  | DHFR |  | 0.97 µM |
| Nc1ccc(S(=O)(=O)c2ccc(N)cc2)cc1 | IC50 |  | Oxidosqualene cyclase | HPLC | 215 µM |
| C=C1NC(OC)=C/C(=N/S(=O)(=O)c2ccc(N)cc2)N1 | IC50 |  | DHPS |  | 0.094 µM |
| CC1(C)N=C(N)N=C(N)N1c1cc(C(F)(F)F)cc(C(F)(F)F)c1 | IC50 |  | DHFR |  | 66.9 µM |
| CC(=O)NS(=O)(=O)c1ccc(NC(=O)c2ccco2)cc1 | IC50 |  | DHPS |  | >10 µM |
| CCc1nc(N)nc(N)c1-c1ccc(N(CC)Cc2ccccc2)c([N+](=O)[O-])c1 | IC50 |  | DHFR |  | 5.7 µM |
| Cc1cc(N(C(=O)COC(C)C)S(=O)(=O)c2ccc(N)cc2)no1 | IC50 |  | DHPS |  | 0.023 µM |
| COc1cc(Cc2cnc(N)nc2N)cc(OC)c1-n1cccc1 | IC50 |  | DHFR |  | 29 µM |
| Cc1c(CNc2ccc(C(=O)NC(CC(=O)O)C(=O)O)cc2)ccc2nc(N)nc(N)c12 | IC50 |  | DHFR |  | 0.00042 µM |
| COCCCCOc1ccc2c(-c3cnc(N)nc3N)cccc2c1 | IC50 |  | DHFR |  | 80 µM |
| Cc1ccnc(NS(=O)(=O)c2ccc(N)cc2)n1 | IC50 |  | DHPS |  | 0.078 µM |
| CC1(C)N=C(N)N=C(N)N1c1ccc(C(C#N)CCCc2ccccc2)cc1 | IC50 |  | DHFR |  | 6.1 µM |

The last 2 rows once more:

| SMILES | measure | tested at | protein | read by | result |
|---|---|---|---|---|---|
| Cc1ccnc(NS(=O)(=O)c2ccc(N)cc2)n1 | IC50 |  | DHPS |  | 0.078 µM |
| CC1(C)N=C(N)N=C(N)N1c1ccc(C(C#N)CCCc2ccccc2)cc1 | IC50 |  | DHFR |  | 6.1 µM |